Results of unrelated studies side by side (data: NIAID ChemDB).

Common to all: host cell toxicity; measure: CC50

Lines come from different laboratories, so protocols vary. Two numbers with a dash give a range or band. CCn is the concentration with n% toxicity to the cells.

C#CCCC[C@@H]1OC(=O)CNC(=O)[C@H]([C@@H](C)CC)NC(=O)[C@@H]2CCCN2C(=O)[C@H]([C@@H](C)CC)OC(=O)[C@H](Cc2ccccc2)N(C)C(=O)[C@H](C(C)C)NC(=O)C1(C)C ; cell line: MCF-7 ; method: MTT ; result: 13 µM
O=c1[nH]c(=O)n([C@@H]2O[C@H](CO)[C@@H](O)[C@@H]2O)cc1/C=C/Br ; cell line: CBMC ; method: MTT ; result: 98 µM
CC(C)Cc1ccc(C(C)C(=O)NCc2ccc(N)cc2)cc1 ; cell line: RAW 264.7 ; method: resazurin / fluorescence ; result: 200 µg/mL
O=c1[nH]c(=O)n([C@H]2C[C@H](O)[C@@H](CO)O2)c[c]1[Hg+].OCC[S-] ; cell line: HELA TK- ; method: trypan blue ; result: 19.4 µg/mL
O=c1[nH]cnc2c1ncn2[C@H]1CC[C@@H](CO)O1 ; cell line: CEM-GFP ; method: MTS ; result: >1000 µM
O=C1CCC(c2ccccc2)C(=O)N1CCCCN1CCN(c2ccccn2)CC1 ; cell line: VERO 76 ; method: MTT ; result: 98 µM
Nc1ncnc2c1ncn2CCOCP(=O)(O)O ; cell line: P3HR-1 ; result: 100 µg/mL
CC(=O)N(C)[C@H]1C[C@@]23CC[C@@]4(O2)C(=CC[C@]2(C)C(c5ccc6ccncc6c5)=CC[C@H]24)C=C3[C@@H](O)[C@@H]1O ; cell line: HUVEC ; method: ATP ; result: >1 µM
CC(=O)c1c(O)c(C)c(O)c2c1OC1=CC(=O)/C(=C(/C)NNC(=O)c3ccc(O)cc3)C(=O)[C@@]12C ; cell line: L6 ; method: resazurin ; result: 66.97 µM
NNC(=O)c1ccncc1 ; cell line: RAW 264.7 ; method: resazurin / fluorescence ; result: 3000 µg/mL
Nc1nc(NC(c2ccccc2)c2ccccc2)c2ncn(CCOCP(=O)(O)O)c2n1 ; cell line: P3HR-1 ; result: 38 µg/mL
Cc1cc(C#N)cc(C)c1Oc1nc(Nc2ccc(C#N)cc2)nc(N)c1Br ; cell line: CEM-GFP ; method: MTS ; result: 58 µM
CC(=O)c1c(O)c(C)c(O)c2c1OC1=CC(=O)/C(=C(/C)NCCCCOC3O[C@@H]4OCC5(C)CC6[C@H](C)CC[C@@H]([C@H]3C)[C@]64OO5)C(=O)[C@@]12C ; cell line: L6 ; method: resazurin ; result: 0.015 µM
C[C@H]1c2ccoc2C[C@H]2[C@H]1[C@@H](O)[C@@H](OC(=O)/C=C/c1ccccc1)[C@@]1(O)C(C)(C)CCC[C@]21C ; cell line: NCI-H187 ; result: 6.2 µg/mL
OCCNc1ccnc2cc(Cl)ccc12 ; cell line: HeLa cells ; method: MTT ; result: >100 µM
CCCCC[C@@H]1OC(=O)CNC(=O)[C@H]([C@@H](C)CC)NC(=O)[C@@H]2CCCN2C(=O)[C@H]([C@@H](C)CC)OC(=O)[C@H](Cc2ccccc2)N(C)C(=O)[C@H](C(C)C)NC(=O)C1(C)C ; cell line: HT-29 ; method: MTT ; result: 67 µM
CN(C)[C@H]1C[C@@]23CC[C@@]4(O2)C(=CC[C@]2(C)C(c5ccc6cnccc6c5)=CC[C@H]24)C=C3[C@@H](O)[C@@H]1O ; cell line: HUVEC ; method: ATP ; result: >1 µM
NCCCCCNc1ccnc2cc(Cl)ccc12 ; cell line: HeLa cells ; method: MTT ; result: 56.64 µM
C[C@H]1c2ccoc2C[C@H]2[C@H]1[C@@H](O)[C@@H](OC(=O)c1ccccc1)[C@@]1(O)C(C)(C)CCC[C@]21C ; cell line: BC ; result: 3.6 µg/mL
c1ccc(-c2ccccn2)nc1 ; cell line: J774A.1 ; method: absorbance ; result: ≤63 µM
CCC[C@H](NC(=O)[C@@H]1[C@H]2CCC[C@H]2CN1C(=O)[C@@H](NC(=O)[C@@H](NC(=O)c1cnccn1)C1CCCCC1)C(C)(C)C)C(=O)C(=O)NC1CC1 ; cell line: RFP-NLS-IPS ; result: >30 µM
O=c1[nH]c(=O)n([C@H]2C[C@H](O)[C@@H](CO)O2)cc1C(F)(F)F ; cell line: CBMC ; method: MTT ; result: 71 µM
C#CCCC[C@@H]1OC(=O)CNC(=O)[C@H]([C@@H](C)CC)NC(=O)[C@@H]2CCCN2C(=O)[C@H]([C@@H](C)CC)OC(=O)[C@H](Cc2ccccc2)NC(=O)[C@H](C(C)C)NC(=O)C1(C)C ; cell line: HT-29 ; method: MTT ; result: >100 µM
CN(C)[C@H]1C[C@@]23CC[C@@]4(O2)C(=CC[C@]2(C)C(c5ccc6nc(N)ncc6c5)=CC[C@H]24)C=C3[C@@H](O)[C@@H]1O ; cell line: HUVEC ; method: ATP ; result: <0.1 µM
Cc1cn([C@H]2C[C@H](N=[N+]=[N-])[C@H](CO)O2)c(=O)n(Cc2cccc(Nc3ccnc4cc(Cl)ccc34)c2)c1=O ; cell line: HeLa cells ; method: MTT ; result: >100 µM
CN(C)[C@H]1C[C@@]23CC[C@@]4(O2)C(=CC[C@]2(C)C(c5cccc6cnccc56)=CC[C@H]24)C=C3[C@@H](O)[C@@H]1O ; cell line: HUVEC ; method: ATP ; result: >1 µM
Nc1ccn([C@@H]2CS[C@H](CO)O2)c(=O)n1 ; cell line: CEM-GFP ; method: MTS ; result: >1000 µM
Cc1cn([C@H]2C[C@H](N=[N+]=[N-])[C@@H](CO)O2)c(=O)[nH]c1=O ; cell line: CEM-CD4 ; method: MTT ; result: 200 µM
Nc1nc2c(ncn2COCCO)c(=O)[nH]1 ; cell line: BCBL-1 ; result: ≥144 µg/mL
C#Cc1c(C(N)=O)ncn1[C@@H]1O[C@H](CO)[C@@H](O)[C@H]1O ; cell line: LLC-MK2 ; method: MTT / neutral red ; result: 4.3 µg/mL
Cc1cc(/C=C/C#N)cc(C)c1Nc1ccnc(Nc2ccc(C#N)cc2)n1 ; cell line: CEM-GFP ; method: MTS ; result: 822 µM
NC(CS)C(=O)O.O=c1[nH]c(=O)n([C@H]2C[C@H](O)[C@@H](CO)O2)c[c]1[Hg+] ; cell line: HELA TK- ; method: trypan blue ; result: >114 µg/mL
O=c1[nH]c(=O)n([C@H]2C[C@H](O)[C@@H](CO)O2)cc1/C=C/Br ; cell line: BCBL-1 ; result: 119 µg/mL
COc1ccccc1N1CCN(CCCCN2C(=O)CCC(c3ccccc3)C2=O)CC1 ; cell line: VERO 76 ; method: MTT ; result: >100 µM
CN(C)[C@H]1C[C@@]23CC[C@@]4(O2)C(=CC[C@]2(C)C(c5ccc6ccncc6c5)=CC[C@H]24)CC3[C@@H](O)[C@@H]1O ; cell line: HUVEC ; method: ATP ; result: 0.1–1 µM
Nc1ccn([C@H]2CC[C@@H](CO)O2)c(=O)n1 ; cell line: 2.2.15 ; result: >200 µM
Cc1cn([C@H]2C[C@H](N=[N+]=[N-])[C@@H](CO)O2)c(=O)nc1N ; cell line: CFU-GM ; result: 36 µM
Cc1cn([C@H]2C[C@H]([N+](=O)[O-])[C@@H](CO)O2)c(=O)[nH]c1=O ; cell line: P3HR-1 ; result: >100 µg/mL
Cc1cn([C@H]2C[C@H](N=[N+]=[N-])[C@H](CO)O2)c(=O)n(CCNc2ccnc3cc(Cl)ccc23)c1=O ; cell line: HeLa cells ; method: MTT ; result: >100 µM
CON=C1C[C@H](n2cc(C)c(=O)[nH]c2=O)O[C@@H]1CO ; cell line: P3HR-1 ; result: >100 µg/mL
O=c1[nH]c(=O)n([C@H]2C[C@H](O)[C@@H](CO)O2)c[c]1[Hg+] ; cell line: HELA TK- ; method: trypan blue ; result: 5.7 µg/mL
CC(=O)c1c(O)c(C)c(O)c2c1OC1=CC(=O)/C(=C(/C)NCc3ccncc3)C(=O)[C@@]12C ; cell line: L6 ; method: resazurin ; result: 23.94 µM
Nc1nc(N)c2ncn(CCOCP(=O)(O)O)c2n1 ; cell line: CBMC ; method: MTT ; result: 32 µM
CCCCCCCCCc1ccc(OCCOCCOCCOCCOCCOCCOCCOCCOCCO)cc1 ; cell line: Human vaginal epithelial ; result: 39 µM
Nc1ccn(C[C@H]2COP(=O)(O)CO2)c(=O)n1 ; cell line: HSB-2 ; method: MTT ; result: 224 µM
CC(C)OC(=O)[C@H](C)NP(=O)(OC[C@H]1O[C@@H](n2ccc(=O)[nH]c2=O)[C@](C)(F)[C@@H]1O)Oc1ccccc1 ; cell line: Replicon cells ; result: >50 µM
CC(C)Cc1ccc(C(C)C(=O)NCc2ccccc2)cc1 ; cell line: RAW 264.7 ; method: resazurin / fluorescence ; result: 100 µg/mL
O=C1CCC(c2ccccc2)C(=O)N1CCCN1CCN(c2ccccc2O)CC1 ; cell line: VERO 76 ; method: MTT ; result: >100 µM
C[C@@H]1CC[C@H]2[C@@H](C)C(=O)O[C@@H]3OC4(C)CC[C@@H]1[C@]32OO4 ; cell line: Huh 5-2 ; result: >177 µM

4 of the rows above, restated:

Cc1cn([C@H]2C[C@H](N=[N+]=[N-])[C@H](CO)O2)c(=O)n(CCNc2ccnc3cc(Cl)ccc23)c1=O ; cell line: HeLa cells ; method: MTT ; result: >100 µM
CCC[C@H](NC(=O)[C@@H]1[C@H]2CCC[C@H]2CN1C(=O)[C@@H](NC(=O)[C@@H](NC(=O)c1cnccn1)C1CCCCC1)C(C)(C)C)C(=O)C(=O)NC1CC1 ; cell line: RFP-NLS-IPS ; result: >30 µM
C#CCCC[C@@H]1OC(=O)CNC(=O)[C@H]([C@@H](C)CC)NC(=O)[C@@H]2CCCN2C(=O)[C@H]([C@@H](C)CC)OC(=O)[C@H](Cc2ccccc2)NC(=O)[C@H](C(C)C)NC(=O)C1(C)C ; cell line: HT-29 ; method: MTT ; result: >100 µM
OCCNc1ccnc2cc(Cl)ccc12 ; cell line: HeLa cells ; method: MTT ; result: >100 µM